Laboratory results published in patent US20040229298A1.
“And” between values parts separate entries of the source, which are not always exact repeats. Identical values can stand only once.

B1: GST-MAGI 1 PDZ domain 2 fusion protein (protein)
chain: MSPILGYWKIKGLVQPTRLLLEYLEEKYEEHLYERDEGDKWRNKKFELGLEFPNLPYYIDGDVKLTQSMAIIRYIADKHNMLGGCPKERAEISMLEGAVLDIRYGVSRIAYSKDFETLKVDFLSKLPEMLKMFEDRLCHKTYLNGDHVTHPDFMLYDALDVVLYMDPMCLDAFPKLVCFKKRIEAIPQIDKYLKSSKYIAWPLQGWQATFGGGDHPPKSDLIEGRHTKLRKSSRGFGFTVVGGDEPDEFLQIKSLVLDGPAALDGKMETGDVIVSVNDTCVLGHTHAQVVKIFQSIPIGASVDLELCR
B2: GST-KIAA0807 PDZ domain 1 fusion protein (protein)
chain: MSPILGYWKIKGLVQPTRLLLEYLEEKYEEHLYERDEGDKWRNKKFELGLEFPNLPYYIDGDVKLTQSMAIIRYIADKHNMLGGCPKERAEISMLEGAVLDIRYGVSRIAYSKDFETLKVDFLSKLPEMLKMFEDRLCHKTYLNGDHVTHPDFMLYDALDVVLYMDPMCLDAFPKLVCFKKRIEAIPQIDKYLKSSKYIAWPLQGWQATFGGGDHPPKSDLIEGRISALGSMRPPIIIHRAGKKYGFTLRAIRVYMGDSDVYTVHHMVWHVEDGGPASEAGLRQGDLITHVNGEPVHGLVHTEVVELILKSGNKVAISTTPLENSS
B3: GST-KIAA0973 #288.2 PDZ domain 1 fusion protein (protein)
chain: MSPILGYWKIKGLVQPTRLLLEYLEEKYEEHLYERDEGDKWRNKKFELGLEFPNLPYYIDGDVKLTQSMAIIRYIADKHNMLGGCPKERAEISMLEGAVLDIRYGVSRIAYSKDFETLKVDFLSKLPEMLKMFEDRLCHKTYLNGDHVTHPDFMLYDALDVVLYMDPMCLDAFPKLVCFKKRIEAIPQIDKYLKSSKYIAWPLQGWQATFGGGDHPPKSDLIEGRGLRSPITIQRSGKKYGFTLRAIRVYMGDTDVYSVHHIVWHVEEGGPAQEAGLCAGDLITHVNGEPVHGMVHPEVVELILKSGNKVAVTTTPFE
B4: GST-KIAA0147 PDZ domain 1 fusion protein (protein)
chain: MSPILGYWKIKGLVQPTRLLLEYLEEKYEEHLYERDEGDKWRNKKFELGLEFPNLPYYIDGDVKLTQSMAIIRYIADKHNMLGGCPKERAEISMLEGAVLDIRYGVSRIAYSKDFETLKVDFLSKLPEMLKMFEDRLCHKTYLNGDHVTHPDFMLYDALDVVLYMDPMCLDAFPKLVCFKKRIEAIPQIDKYLKSSKYIAWPLQGWQATFGGGDHPPKSDLIEGRTLTILRQTGGLGISIAGGKGSTPYKGDDEGIFISRVSEEGPAARAGVRVGDKLLEVNGVALQGAEHHEAVEALRGAGTAVQMRVWRER
B5: GST-KIAA1634 PDZ domain 1 fusion protein (protein)
chain: MSPILGYWKIKGLVQPTRLLLEYLEEKYEEHLYERDEGDKWRNKKFELGLEFPNLPYYIDGDVKLTQSMAIIRYIADKHNMLGGCPKERAEISMLEGAVLDIRYGVSRIAYSKDFETLKVDFLSKLPEMLKMFEDRLCHKTYLNGDHVTHPDFMLYDALDVVLYMDPMCLDAFPKLVCFKKRIEAIPQIDKYLKSSKYIAWPLQGWQATFGGGDHPPKSDLIEGRPSQLKGVLVRASLKKSTMGFGFTIIGGDRPDEFLQVKNVLKDGPAAQDGKIAPGDVIVDINGNCVLGHTHADVVQMFQLVPVNQYVNLTLCRGYPLPDDSED
B6: GST-DLG1 PDZ domain 2 fusion protein (protein)
chain: MSPILGYWKIKGLVQPTRLLLEYLEEKYEEHLYERDEGDKWRNKKFELGLEFPNLPYYIDGDVKLTQSMAIIRYIADKHNMLGGCPKERAEISMLEGAVLDIRYGVSRIAYSKDFETLKVDFLSKLPEMLKMFEDRLCHKTYLNGDHVTHPDFMLYDALDVVLYMDPMCLDAFPKLVCFKKRIEAIPQIDKYLKSSKYIAWPLQGWQATFGGGDHPPKSDLIEGRIQLIKGPKGLGFSIAGGVGNQHIPGDNSIYVTKIIEGGAAHKDGKLQIGDKLLAVNNVCLEEVTHEEAVTALKNTSDFVYLKVAKP

Tests used:
[1] = molecular target: T1, HPV16 E6 PDZ ligand peptide (biotinylated C-terminal peptide of the E6 protein of HPV 16) (human papillomavirus 16); test: G assay ELISA, signal over GST-only well
[2] = molecular target: T1, HPV16 E6 PDZ ligand peptide …; test: G assay ELISA, immobilised GST-PDZ, 10 uM biotinylated peptide

Binder	OD S/N [1]	Ave OD [2]
B1	19.5	4.11 A450 nm
B2	23.2 and 11.4	3.91 A450 nm and 1.69 A450 nm
B3	16.4 and 10.1	3.85 A450 nm and 2.83 A450 nm
B4	21.3 and 8.71	3.76 A450 nm and 2.15 A450 nm
B5	19 and 19.4	3.46 A450 nm and 3.34 A450 nm
B6	6.63 and 2.76	–
